Test results taken from article PMC5098743.

Molecular target: LN40 Env wt (HIV-1)

## Soluble CD4 (from UniProt P01730) (receptor)
  inhibition by sCD4 of infection of HeLa TZM-bl cells by Env+ pseudovirus (blocks Env with cell CD4): IC50 fold change from LN40wt: 1 fold
